{"source": "paper PMC2783173", "about": "(Journal of molecular biology, 2009)", "proteins": {"B1": {"name": "HIV-1 Nef (SF2) G2A (myristoylation defective), YFP BiFC fusions (natural protein)", "chain": "not shown"}}, "biological_target": "the molecule itself", "assay": "split reporter"}
{"protein": "B1", "values": [{"measurement": "% decrease in BiFC relative to WT", "value": 0, "unit": "%"}]}
